Results on 3 compounds are retold here after PMC11470151, “Advanced glycation end-product crosslinking activates a type VI secretion system phospholipase effector protein” (Nature Communications, 2024).

The target in assay [1] is T1, His6-lipase•∆ss-Tli complex (Enterobacter cloacae, UniProt A0A0M7ENE2).
T1 construct: gene NCTC10005_04014; made in E. coli; 7UBZ is the chymotrypsin-treated complex (His340-Leu445 removed); with T6SS lipase immunity protein Tli (ankyrin repeat domain-containing protein)
Put plainly: SDS-PAGE crosslinking in vitro. The format is biochemical. The conditions noted are these: covalent; 37 °C, 20 mM sodium phosphate pH 7.0; thermolabile crosslink.

Assay [2] has as its target T2, His6-lipase domain of Tle (MODIC-modified) (Enterobacter cloacae, UniProt A0A0M7ENE2).
T2 construct: gene NCTC10005_04014; C-terminal lipase domain Thr172-Ala472, N-terminal His6
Put plainly: fluorogenic phospholipase A2 assay. The format is biochemical. The conditions noted are these: DOPC/DOPG liposomes, 50 mM Tris-HCl pH 7.5, 100 mM NaCl, 1 mM CaCl2; 600 nM enzyme, 1.5 µM substrate.

Assay [3] deals with T3, His6-Tle (modified, full-length) (Enterobacter cloacae, UniProt A0A0M7ENE2).
T3 construct: gene NCTC10005_04014; full-length, N-terminal His6
Put plainly: fluorogenic phospholipase A2 assay. The class given is biochemical. The note with it: DOPC/DOPG liposomes, 50 mM Tris-HCl pH 7.5, 100 mM NaCl, 1 mM CaCl2; 600 nM enzyme, 1.5 µM substrate.

The target of assay [4] is T1, His6-lipase•∆ss-Tli complex. Put plainly: crystal structure of MODIC crosslink; SDS-PAGE crosslinking in vitro. The class given is binding. The note with it: covalent; Arg180-Lys461 imidazolium crosslink (MODIC) in lipase chain; needs bound Tli; structure formed with endogenous methylglyoxal in E. coli.

SMILES strings stand for the structures.

`O=CC=O` [glyoxal]: the “SDS-PAGE crosslinking in vitro” value in assay [1] is “The lipase can also be crosslinked with glyoxal at lower efficiency”.

Turning to `CCCCCCCCCCCCCCCC(=O)OC[C@H](COP(=O)(O)OCCNC(=O)CCCCCNc1ccc([N+](=O)[O-])cc1[N+](=O)[O-])OC(=O)CCCCC1=[N+]2C(=Cc3c(C)cc(C)n3[B-]2(F)F)C=C1` [PED6], the “fluorogenic phospholipase A2 assay” value in assay [2] is “modified lipase catalyzes phospholipase A1 and A2 reactions”; in assay [3] it was “modified form of full-length His6-Tle also exhibits phospholipase A1 and A2 activities”.

Consider `CC(=O)C=O` [methylglyoxal], for which the “crystal structure of MODIC crosslink; SDS-PAGE crosslinking in vitro” value in assay [4] was “MODIC fits well into the electron density bridging Arg180 and Lys461”.
